Anti-infective test results gathered from many reports (values: NIAID ChemDB through PubChem).

All rows: growth or infection tests; agent: Cryptococcus neoformans; endpoint: MIC

a–b is a range or a potency band. Lines come from different laboratories, so protocols vary.

CCOC(=O)C1CC([C@H]2O[C@@H]3OC(C)(C)O[C@@H]3[C@H]3OC(C)(C)O[C@H]32)=NO1 ; result: 12.5 µg/mL
C[C@H](n1nnnc1CCN1CCN(c2ccc([N+](=O)[O-])cc2)CC1)[C@](O)(Cn1cncn1)c1ccc(F)cc1F ; strain or isolate: LA314 ; result: >8 µg/mL
COc1cc(O)c2c(c1)C(=O)c1c(cc3c(c1O)-c1c(cc(C)c(C(=O)N[C@H](C)C(=O)O)c1O)[C@H](O[C@@H]1O[C@H](C)[C@H](O)[C@H](O[C@@H]4OC[C@@H](O)[C@H](O)[C@H]4O)[C@H]1O)[C@H]3O)C2=O ; strain or isolate: TIMM1855 ; result: 1.56 µg/mL
CO[C@@H]1[C@H]2OC(C)(C)O[C@H]2O[C@@H]1C1=NOC(C(C)=O)C1 ; result: 25 µg/mL
CCCS(=O)c1ccc2nc(NC(=O)OC)[nH]c2c1 ; strain or isolate: 2 isolates ; result: >10 µg/mL
O=C1/C(=C/c2ccc3ccccc3c2)CSc2ccccc21 ; strain or isolate: Farwania ; result: 12.5 µg/mL
C[C@H](n1nnnc1CCN1CCN(c2ccc(F)cc2)CC1)[C@](O)(Cn1cncn1)c1ccc(F)cc1F ; strain or isolate: LA314 ; result: 8 µg/mL
CCC(C)C#Cc1c(C)nc(N)nc1N ; result: 0.2 µg/mL
CCOC(=O)c1cnc(NCCCCNc2ccnc3cc(Cl)ccc23)nc1C ; strain or isolate: ATCC 24067 ; result: 5.7 µg/mL
O[C@](Cn1cncn1)(Cn1cnc(/C=C/c2ccc(OCC(F)(F)C(F)F)cc2)n1)c1ccc(F)cc1F ; strain or isolate: TIMM0354 ; result: 0.78 µg/mL
O=C1/C(=C/c2ccccc2)CCc2ccccc21 ; strain or isolate: Farwania ; result: 25 µg/mL
Oc1ccccc1N=Cc1ccc(F)cc1 ; strain or isolate: LMM 820 ; result: 4 µg/mL
CCCCCCCCCCCCC#CCCCCC(=O)O ; strain or isolate: ATCC66031 ; result: <4.3 µM
CC(N1CCN(c2ccc(-n3cnnn3)cc2)C1=O)[C@](O)(Cn1cncn1)c1ccc(F)cc1F ; result: 0.25 µg/mL
C1CCC(C[C@H]2CN3C(=NC[C@H]3C3CCCCC3)N2CCC23CC4CC(CC(C4)C2)C3)CC1 ; strain or isolate: ATCC 32045 ; result: 4–8 µg/mL
CC(=O)OC(CCCC12OC(C(=O)O)C(O)(C(=O)O)C(C(=O)O)(O1)C(OC(=O)CCCCCC/C=C/c1ccccc1)C2O)C(C)C/C=C/c1ccccc1 ; strain or isolate: 58063 ; result: 6.2 µg/mL
O=C1C(OS(=O)(=O)c2ccc([N+](=O)[O-])cc2)C(c2ccccc2)N1c1ccccc1 ; strain or isolate: AH27/A ; result: 14.08 µM
COC(=O)C1CC([C@H]2O[C@@H]3OC(C)(C)O[C@@H]3[C@H]2OCc2ccccc2)=NO1 ; result: 50 µg/mL
CCc1ccc(/C=C2\CCc3ccccc3C2=O)cc1 ; strain or isolate: 93/V ; result: 12.5 µg/mL
C[C@@H](N1CCN(c2ccc(-n3cnnn3)cc2)C1=O)[C@](O)(Cn1cncn1)c1ccc(F)cc1F ; strain or isolate: TIMM1740 ; result: >16 µg/mL
CC(C)N=C(N)c1ccc2nc(-c3ccc4c(c3)Cc3cc(-c5nc6ccc(C(N)=NC(C)C)cc6[nH]5)ccc3-4)[nH]c2c1 ; strain or isolate: H99 ; result: 0.78 µg/mL
Cc1nc(N)nc(N)c1C#CC(C)(C)C ; result: 0.2 µg/mL
CC(=O)c1ccc2c(c1O)C=CC(C)(C)O2 ; result: 50 µg/mL
Clc1ccc(C(Cn2ccnc2)OCc2ccc(-c3ccccc3)cc2)c(Cl)c1 ; result: >128 µg/mL
CCOC(=O)c1c(C)nc(NCCCCNc2ccnc3cc(Cl)ccc23)nc1-c1ccccc1 ; strain or isolate: ATCC 24067 ; result: 5.7 µg/mL
CSc1ncc([N+](=O)[O-])n1C ; result: >200 µg/mL
CCC(O)(C#Cc1c(C)nc(N)nc1N)CC ; result: 12.5 µg/mL
CC(N1CCN(c2ccc(-n3cnnn3)cc2)C1=O)[C@@](O)(Cn1cncn1)c1ccc(F)cc1F ; strain or isolate: TIMM1740 ; result: >16 µg/mL
CCO[C@@H]1[C@@H](OCC)[C@H](Cc2ccccc2)O[C@@H]2CO[C@@H](c3ccc(Cl)cc3)O[C@@H]12 ; strain or isolate: ATCC90112 ; result: >25 µg/mL
Cn1c([N+](=O)[O-])cnc1S(C)(=O)=O ; result: >200 µg/mL
CCOC1CC([C@H]2O[C@@H]3OC(C)(C)O[C@@H]3[C@H]2OCc2ccccc2)=NO1 ; result: 25 µg/mL
C[C@@H](c1nc(-c2ccc(C#N)cc2)cs1)[C@](O)(Cn1cncn1)c1ccc(F)cc1F ; strain or isolate: 3 ; result: 0.025 µg/mL
CCOC(=O)C1CC([C@H]2O[C@@H]3OC(C)(C)O[C@@H]3[C@H]2OCc2ccccc2)=NO1 ; result: 12.5 µg/mL
CCN1C2=NC[C@@H](CC3CCCCC3)N2C[C@@H]1Cc1ccccc1 ; strain or isolate: ATCC 32045 ; result: 62–125 µg/mL
O=C1/C(=C/c2ccccc2O)COc2ccccc21 ; strain or isolate: Farwania ; result: 12.5 µg/mL
Clc1ccc(C(Cn2ccnc2)OCc2ccc(-c3ccccc3)cc2)cc1 ; result: >128 µg/mL
C[C@H](n1nnc(CCN2CCN(c3cccc(Cl)c3)CC2)n1)[C@](O)(Cn1cncn1)c1ccc(F)cc1F ; strain or isolate: LA314 ; result: 4 µg/mL
COc1cc(OC)c2c(O)c3c(c(-c4ccc5cc6c(c(O)c5c4O)C(=O)CC(C)(O)C6)c2c1)CC(C)OC3C ; result: 2 µg/mL
CO[C@@H]1[C@H]2OC(C)(C)O[C@H]2O[C@@H]1C1=NOC(C#N)C1 ; result: 50 µg/mL
C[C@H](n1nnnc1CCN1CCN(c2ccccn2)CC1)[C@](O)(Cn1cncn1)c1ccc(F)cc1F ; strain or isolate: LA314 ; result: >8 µg/mL
CC(=O)O[C@@H]1C(=O)N(c2ccc(C(=O)O)cc2)[C@H]1c1ccc2c(c1)OCO2 ; strain or isolate: AH27/A ; result: 135.5 µM
C=CCN(CC=C)C(C)C(O)(Cn1cncn1)c1ccc(F)cc1F ; strain or isolate: KC-201 ; result: 0.1 µg/mL
Fc1ccccc1CC(Cc1ccc(-c2ccccc2)cc1)n1ccnc1 ; result: 5.5 µM
CC1(C)O[C@H]2OC(COCC(O)CNCCCCCCCCNC(O)COCC3O[C@@H]4OC(C)(C)O[C@@H]4[C@H]4OC(C)(C)O[C@@H]34)[C@@H]3OC(C)(C)O[C@@H]3[C@H]2O1 ; result: 50 µg/mL
C=C1/C=C(\CO)[C@H](CC)OC(=O)[C@H](C)C(=O)C(O)(CO)C/C(C)=C/[C@@H](C)C1 ; strain or isolate: MY2062 ; result: 3.1 µg/mL
O=C1/C(=C/c2ccc(F)cc2)CCc2ccccc21 ; strain or isolate: Farwania ; result: 25 µg/mL
CCSc1nc(Cl)c(C#N)c(-c2ccc(F)cc2F)n1 ; result: 6.25 µg/mL
CCOC(=O)c1c(C)nc(NCCCNc2ccnc3cc(Cl)ccc23)nc1-c1ccccc1 ; strain or isolate: ATCC 24067 ; result: 5.7 µg/mL
CSc1nccn1C ; result: >200 µg/mL
CC(C)(C)c1ccc(CC(Cc2ccc(-c3ccccc3)cc2)n2ccnc2)cc1 ; result: 33 µM
O=C1/C(=C/c2ccc3c(c2)OCO3)CCc2ccccc21 ; strain or isolate: 25 ; result: 50 µg/mL
C[C@H](n1nnc(CCN2CCN(c3ccc(Cl)cc3)CC2)n1)[C@](O)(Cn1cncn1)c1ccc(F)cc1F ; strain or isolate: LA314 ; result: 4 µg/mL
CC(N(C)C)C(O)(Cn1cncn1)c1ccc(F)cc1F ; strain or isolate: KC-201 ; result: 6.25 µg/mL
Cn1ccnc1S(C)=O ; result: >200 µg/mL
Nc1[nH]c(=O)ncc1F ; strain or isolate: H38 ; result: 1 µg/mL
CC1(C)O[C@H]2O[C@H](C3=NOC(CBr)C3)[C@H](OCc3ccccc3)[C@H]2O1 ; result: 25 µg/mL
CC(C)(C)C1CCC(CN2C3=NC[C@@H](CC4CCCCC4)N3C[C@@H]2CC2CCCCC2)CC1 ; strain or isolate: ATCC 32045 ; result: 8–16 µg/mL
C[C@H](n1nnc(CCN2CCN(c3ccc(F)cc3)CC2)n1)[C@](O)(Cn1cncn1)c1ccc(F)cc1F ; strain or isolate: LA314 ; result: 2 µg/mL
CCSc1nc(Cl)c(C#N)c(-c2ccco2)n1 ; result: 25 µg/mL
COc1ccc(/C=C2\COc3ccc(-c4ccccc4)cc3C2=O)cc1OC ; strain or isolate: 25 ; result: 50 µg/mL
CC(C)(C)c1ccc(COC(Cn2ccnc2)c2ccc(Cl)cc2)cc1 ; result: 128 µg/mL
CC(C)(C)C1CCC(CN2C3=NC[C@H](CC4CCCCC4)N3C[C@H]2CC2CCCCC2)CC1 ; strain or isolate: ATCC 32045 ; result: 8–16 µg/mL
CC[C@H]1/C=C(\C)[C@H](O)[C@H](C)C[C@H](OC)[C@H]2O[C@@](O)(C(=O)C(=O)N3CCCC[C@H]3C(=O)O[C@H](/C(C)=C/[C@@H]3CC[C@@H](O)[C@H](OC)C3)[C@H](C)[C@@H](O)CC1=O)[C@H](C)C[C@@H]2OC ; strain or isolate: C20F1 ; result: 50 µg/mL
C[C@H](n1nnnc1CCN1CCN(c2ccccc2)CC1)[C@](O)(Cn1cncn1)c1ccc(F)cc1F ; strain or isolate: LA314 ; result: >8 µg/mL
O=C1C(OS(=O)(=O)c2ccc(Br)cc2)C(c2ccccc2)N1c1ccccc1 ; strain or isolate: AH27/A ; result: 3.27 µM
O=C(O)c1ccc(-c2nnn(CC#CI)n2)cc1 ; strain or isolate: CR-1 ; result: 100 µg/mL
CO/C=C1\[C@@H](Cn2cncn2)[C@H](COc2ccc(OC(F)(F)F)cc2)CC[C@@]1(C)CCOC ; strain or isolate: CY1057 ; result: 1 µg/mL
COc1ccc(/C=C2\COc3ccccc3C2=O)cc1OC ; strain or isolate: Farwania ; result: 25 µg/mL
Cc1nc(N)nc(N)c1C#CC(C)C ; result: 1.6 µg/mL
C[C@@H](n1cnc2cc(Cl)ccc2c1=O)[C@](O)(Cn1cncn1)c1ccc(F)cc1F ; strain or isolate: Isolate 124.96 ; result: 0.0024 µg/mL
CC(=O)OC1C(=O)N2CCCS(=O)C12c1ccccc1 ; strain or isolate: AH27/A ; result: 5.11 µM
CC(C)(C)c1ccc(COC(Cn2ccnc2)c2ccccc2)cc1 ; result: 128 µg/mL
CCCCCCCCCC#CCCC#CC(=O)O ; strain or isolate: ATCC66031 ; result: <5.7 µM
CCOC(=O)c1c(C)nc(NCCCCNc2ccnc3cc(Cl)ccc23)nc1-c1ccc(F)cc1 ; strain or isolate: ATCC 24067 ; result: 5.7 µg/mL
CC1(O)CC(=O)c2c(cc3ccc(-c4c5c(c(O)c6c(O)cccc46)C(=O)CC(C)(O)C5)c(O)c3c2O)C1 ; result: 8 µg/mL
C[C@H](n1nnc(CCN2CCN(c3ccccn3)CC2)n1)[C@](O)(Cn1cncn1)c1ccc(F)cc1F ; strain or isolate: LA314 ; result: 8 µg/mL
c1ccc(CC(Cc2ccc(-c3ccccc3)cc2)n2ccnc2)cc1 ; result: 5.5 µM